In experiment [1] the target is T1, N-type calcium channel (Mus musculus, UniProt O55017).
T1 construct: Presynaptic calcium channels have been implicated in the release of neuropeptides from primary afferent fibers; endogenous in cells; host or cells: living mice, primary afferent terminals / spinal cord (intrathecal co-injection with morphine)
On the set-up: species or system mice. The conditions noted are these: in vivo.

Sequences of proteins named here, by UniProt entry; tags and fusion partners are left off.
UniProt O55017, whole entry: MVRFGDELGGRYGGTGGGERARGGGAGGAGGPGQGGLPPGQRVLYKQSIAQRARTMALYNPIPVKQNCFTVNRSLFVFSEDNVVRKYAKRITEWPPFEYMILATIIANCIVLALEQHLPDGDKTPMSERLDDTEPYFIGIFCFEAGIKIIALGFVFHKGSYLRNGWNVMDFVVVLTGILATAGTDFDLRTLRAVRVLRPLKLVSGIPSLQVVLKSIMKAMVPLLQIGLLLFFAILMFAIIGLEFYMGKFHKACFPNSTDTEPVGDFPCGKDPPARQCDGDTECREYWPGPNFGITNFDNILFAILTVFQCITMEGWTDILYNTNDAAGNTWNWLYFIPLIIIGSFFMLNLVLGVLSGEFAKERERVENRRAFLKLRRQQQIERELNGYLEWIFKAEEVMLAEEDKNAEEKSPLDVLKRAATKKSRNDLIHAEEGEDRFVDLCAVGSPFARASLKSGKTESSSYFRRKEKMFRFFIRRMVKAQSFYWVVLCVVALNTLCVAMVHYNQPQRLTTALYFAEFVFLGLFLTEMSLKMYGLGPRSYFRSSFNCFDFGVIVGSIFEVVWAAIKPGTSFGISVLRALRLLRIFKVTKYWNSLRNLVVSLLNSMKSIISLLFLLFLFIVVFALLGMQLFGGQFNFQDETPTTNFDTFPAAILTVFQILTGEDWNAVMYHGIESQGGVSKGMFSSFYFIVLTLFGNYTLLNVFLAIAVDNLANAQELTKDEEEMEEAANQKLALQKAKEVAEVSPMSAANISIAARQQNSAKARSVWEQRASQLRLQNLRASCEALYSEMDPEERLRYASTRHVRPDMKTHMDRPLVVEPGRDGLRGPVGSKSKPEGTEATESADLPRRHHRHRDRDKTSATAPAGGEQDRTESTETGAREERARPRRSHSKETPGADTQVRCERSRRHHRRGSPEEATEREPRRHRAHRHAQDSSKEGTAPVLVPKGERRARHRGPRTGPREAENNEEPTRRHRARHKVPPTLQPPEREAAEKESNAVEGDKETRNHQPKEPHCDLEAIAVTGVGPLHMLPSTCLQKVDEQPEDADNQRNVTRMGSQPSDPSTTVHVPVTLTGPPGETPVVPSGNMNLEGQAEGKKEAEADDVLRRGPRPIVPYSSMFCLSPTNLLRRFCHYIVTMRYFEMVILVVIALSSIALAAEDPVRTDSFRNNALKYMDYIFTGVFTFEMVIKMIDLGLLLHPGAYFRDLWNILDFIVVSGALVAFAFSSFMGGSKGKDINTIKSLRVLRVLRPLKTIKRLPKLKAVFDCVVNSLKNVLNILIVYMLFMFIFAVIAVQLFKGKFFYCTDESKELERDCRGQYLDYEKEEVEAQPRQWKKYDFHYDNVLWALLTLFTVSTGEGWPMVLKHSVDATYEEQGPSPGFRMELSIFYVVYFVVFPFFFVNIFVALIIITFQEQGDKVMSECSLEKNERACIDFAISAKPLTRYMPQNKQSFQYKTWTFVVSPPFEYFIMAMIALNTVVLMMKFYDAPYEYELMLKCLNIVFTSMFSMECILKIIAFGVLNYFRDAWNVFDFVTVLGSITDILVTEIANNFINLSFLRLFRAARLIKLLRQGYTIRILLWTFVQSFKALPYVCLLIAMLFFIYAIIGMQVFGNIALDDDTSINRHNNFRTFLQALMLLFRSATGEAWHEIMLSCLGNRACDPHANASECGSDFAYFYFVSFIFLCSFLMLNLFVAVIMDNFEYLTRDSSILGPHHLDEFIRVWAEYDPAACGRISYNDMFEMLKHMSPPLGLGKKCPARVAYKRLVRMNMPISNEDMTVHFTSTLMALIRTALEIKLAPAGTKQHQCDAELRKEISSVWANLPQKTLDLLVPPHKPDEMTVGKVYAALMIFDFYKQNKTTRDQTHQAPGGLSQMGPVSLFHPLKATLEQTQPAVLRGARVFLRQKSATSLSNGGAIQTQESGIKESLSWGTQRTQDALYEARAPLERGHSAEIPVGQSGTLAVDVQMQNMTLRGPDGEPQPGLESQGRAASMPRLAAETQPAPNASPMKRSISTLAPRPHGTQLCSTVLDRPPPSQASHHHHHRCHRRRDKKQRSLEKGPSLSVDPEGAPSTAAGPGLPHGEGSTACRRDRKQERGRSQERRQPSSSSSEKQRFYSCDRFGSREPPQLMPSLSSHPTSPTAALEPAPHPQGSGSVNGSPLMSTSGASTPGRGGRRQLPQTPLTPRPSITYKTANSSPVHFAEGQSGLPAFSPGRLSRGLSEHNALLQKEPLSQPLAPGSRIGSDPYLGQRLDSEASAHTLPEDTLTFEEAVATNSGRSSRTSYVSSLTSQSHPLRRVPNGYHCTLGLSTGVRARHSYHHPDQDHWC

The target of experiment [2] is N-type calcium channel (Homo sapiens, UniProt Q00975). The conditions noted are these: in vivo; cited from earlier work.

On to ω-Conotoxin GVIA, for which, on N-type calcium channel [1], the “scratching induced by morphine” value is “significantly inhibited”. Further, on N-type calcium channel [2], the antinociceptive effect entry is on record as “has been reported to have an antinociceptive effect” and the “effect on antinociceptive effect of morphine” value was “potentiate the antinociceptive effect of morphine”.

The record behind these values is patent US9636379B2, “Compositions and methods for treating pruritus” (Washington University, priority 2007, dated 2017).
